PubChem BioAssay AID504761 – Drosophila RNAi Screening Center, 2011
Assay: 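Insect host genes that dengue virus relies on to spread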 (primary screen). Cells: D.Mel-2 cells from Drosophila. Reagents: long dsRNA against Drosophila genes. Treatment: infection with dengue virus type 2; dose and infection time not stated. Read-out: 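Cells stained for dengue envelope protein and imaged; percent of infected cells per well on duplicate plates, ranked by infection, with stained nuclei counted for cell number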. Reading the numbers: infection score: higher = more virus-infected cells; cell count: higher = more cells in the well. Hit rule: 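Low infection ranks in the two replicates (chance level up to 0.065) followed by a retest with a 1.5-fold or larger significant decrease, p below 0.05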. Meaning of the calls: active = confirmed: knock-down lowers infection; inactive = not picked or not confirmed.
In all, the deposit lists about 22,000 reagents; this is a random part of those that have a named target and a result. Of all reagents, 116 (0.52%) were called active. 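Calls depend on retest data that are not deposited; infection was ranked per plate without normalising between plates; the unit of the infection score is not given.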 The raw values are shown without normalisation. Unmarked entries are inactive. Names joined by + are all predicted targets of the reagent. Reagent sequences are not shown. Not stated in the record: the amount of reagent, the time to read-out.

gene | DRSC id | infection score, replicate 1 | infection score, replicate 2 | cell count, replicate 1 | cell count, replicate 2
mei-9 | DRSC18792 | 10.7 | 5.48 | 5934 | 6295
AOX2 | DRSC15338 | 3.5 | 2.87 | 6519 | 6482
PSMG1 | DRSC12297 | 9.55 | 13.9 | 6188 | 6594
PSMG1 | DRSC28532 | 9.75 | 15.4 | 5200 | 6292
mlt | DRSC06120 | 10.3 | 9.44 | 6143 | 6546
mlt | DRSC27515 | 6.84 | 12.6 | 5922 | 7039
rpr | DRSC11390 | 7.71 | 2.68 | 6188 | 4919
Tektin-C | DRSC09741 | 1.88 | 8.73 | 6180 | 5644
Tektin-C | DRSC26608 | 3.79 | 1.47 | 5171 | 6448
Naa60 | DRSC10301 | 0.71 | 1.32 | 5876 | 6352
Naa60 | DRSC26416 | 2.52 | 8.25 | 6103 | 6112
CG7366 | DRSC10825 | 3.55 | 5.15 | 6736 | 6733
CG7366 | DRSC29988 | 18.6 | 6.04 | 6350 | 6354
CG3347 | DRSC00597 | 15.2 | 4.74 | 6700 | 6459
Akr1B | DRSC10581 | 9.04 | 13 | 5906 | 6010
CG13102 | DRSC02202 | 5.2 | 0.21 | 6792 | 482
nocte | DRSC18123 | 8.85 | 3.95 | 5232 | 6602
nocte | DRSC28453 | 3.57 | 5.34 | 1624 | 5208
Gmd | DRSC03119 | 10.7 | 4.66 | 5846 | 5861
Gmd | DRSC27937 | 15.3 | 7.9 | 5205 | 4912
CG31639 | DRSC00910 | 0.65 (active) | 0.03 | 5373 | 6703
CG31639 | DRSC28271 | 10.2 | 6.42 | 4449 | 1417
CG30419 | DRSC04208 | 5.14 | 3.41 | 6052 | 6420
CG30419 | DRSC04209 | 10 | 13.7 | 4898 | 6434
CG30419 | DRSC22519 | 5.62 | 0.73 | 6873 | 6685
Spx | DRSC18720 | 11 | 11.9 | 1354 | 1327
Spx | DRSC23542 | 11.8 | 14.4 | 2280 | 2700
CG6628 | DRSC10679 | 2.44 | 5.29 | 5661 | 6121
beta4GalNAcTB | DRSC14869 | 5.84 | 5.67 | 6505 | 6788
CG14190 | DRSC19545 | 5.15 | 0.51 | 5707 | 5455
CG14190 | DRSC27410 | 27.3 | 7.51 | 6071 | 6362
sun | DRSC20140 | 5.05 | 1.79 | 5983 | 5576
sun | DRSC26284 | 23.2 | 12.7 | 3949 | 6525
Alas | DRSC04044 | 27.3 | 18.5 | 5744 | 5395
ab | DRSC23179 | 3.45 | 10.3 | 5649 | 5832
byn | DRSC11332 | 2.95 | 2.54 | 6208 | 6422
byn | DRSC29142 | 11.2 | 11.8 | 3162 | 3361
CG8032 | DRSC16365 | 3.91 | 3.86 | 1971 | 1476
CG8032 | DRSC29586 | – | 2.29 | – | 742
lolal | DRSC06948 | 9.42 | 9.8 | 6780 | 6987
DIP-gamma | DRSC14873 | 1.14 (active) | 0.89 | 6031 | 6383
COX4 | DRSC02091 | 19.4 | 12.4 | 5158 | 5307
COX4 | DRSC23915 | 10.6 | 17.1 | 4853 | 5047
ppk21 | DRSC14466 | 0.27 | 10.2 | 370 | 3022
CG12316 | DRSC09879 | 18.5 | 13.4 | 4948 | 2611
CG12316 | DRSC27599 | 13.3 | 5.75 | 6153 | 6884
scb | DRSC05542 | 0.64 | 3.74 | 6241 | 6077
scb | DRSC07678 | 15.8 | 15.6 | 6130 | 6380
Bruce | DRSC16015 | 6.13 | 1.47 | 7485 | 7136
Marcal1 | DRSC02718 | 5.54 | 7.43 | 5723 | 6241
CG9330 | DRSC11066 | 1.76 | 4.52 | 6360 | 6130
CG9330 | DRSC29449 | 14 | 18.1 | 5472 | 5092
Fst | DRSC16491 | 26.6 | 10.6 | 4221 | 6910
Fst | DRSC24483 | 1.51 | 2.15 | 6222 | 6339
Met | DRSC20284 | 1.35 | 2.95 | 5908 | 6396
Met | DRSC27106 | 4.56 | 3.82 | 6606 | 6264
CR11386 + CR33222 | DRSC17781 | 2.57 | 1.48 | 6232 | 6492
CR11386 + CR33222 | DRSC23991 | 2.34 | 3.95 | 6208 | 6050
